Laboratory results as given in patent publication US20160152689, “Compositions and methods for inhibiting thrombogenesis” (published 2016).

Target: Factor XIa (FXIa), human, human, P03951 19-625
Test: chromogenic substrate assay, inhibition of protease activity

Row | Substance | result
1 | BF01 (Fasxiator), native Kunitz-type protease inhibitor purified from Bungarus fasciatus venom | binds
2 | BF02, isoform of BF01 from Bungarus fasciatus venom | binds
